Test results taken from patent publication US12433964B2, “Antiviral and antibacterial disinfection aero-solution using edible food dyes” (Purdue Research Foundation, priority 2020, dated 2025).

Test: Detection of photogenerated singlet oxygen with turn-off fluorescent ABDA radical probe and NaN3 scavenger
Format: physicochemical
Details: silk fabrics dyed with 50 μM dye solution, ABDA probe, green light 530 nm (FIGS. 3e, 3f)

O=C([O-])c1c(Cl)c(Cl)c(Cl)c(Cl)c1-c1c2cc(I)c(=O)c(I)c-2oc2c(I)c([O-])c(I)cc12.[Na+].[Na+] [FD&C RED No. 105, Rose Bengal]
intensity of ABDA fluorescent peaks as irradiation time increases (singlet oxygen generation): gradually drops

Erythrosine [FD&C RED No. 3]
intensity of ABDA fluorescent peaks as irradiation time increases (singlet oxygen generation): gradually drops
